Values quoted from earlier work as cited in patent publication US8115046B2, “Micro encapsulation composition for hydrocarbons and detoxification of highly hazardous chemicals and substances” (dated 2012).

Test system: anthrax spores
Details: cited from earlier work

## OO
  concentration required for denaturation (spore kill) of anthrax spores: 10-20%
